Record: PubChem BioAssay AID504761 (Drosophila RNAi Screening Center, 2011)
The screen tested about 22,000 reagents; this is a random part of those that have a named target and a result. In the full data, 116 (0.52%) were called active. 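Calls depend on retest data that are not deposited; infection was ranked per plate without normalising between plates; the unit of the infection score is not given.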 Entries without a mark were called inactive. Names joined by + are all predicted targets of the reagent. Not all columns of the deposit are shown. No sequences are given here. The record does not give: the amount of reagent, the time to read-out.

Test: 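Insect host genes that dengue virus relies on to spread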 (primary screen)
System: D.Mel-2 cells from Drosophila
Reagent: long dsRNA against Drosophila genes
Challenge: infection with dengue virus type 2; dose and infection time not stated
Detection: 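Per well on two replicate plates, imaging gave the percent of cells positive for viral envelope protein, ranked by infection, and a nuclear count of cells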
Reading the numbers: infection score: higher = more virus-infected cells
Hit rule: 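Low infection ranks in the two replicates (chance level up to 0.065) followed by a retest with a 1.5-fold or larger significant decrease, p below 0.05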
Calls: active = confirmed: knock-down lowers infection; inactive = not picked or not confirmed

After knock-down of CG8613 [DRSC07222], the screen gave infection score, replicate 1 = 1.46. For CG8613 [DRSC28364], the values are infection score, replicate 1 = 13.6. Depletion of CG31231 [DRSC13308] gave: infection score, replicate 1 = 5.32. For CG31231 [DRSC28440], the entry reads infection score, replicate 1 = 15.6. Depletion of Snapin + HemK2 [DRSC26185] resulted in: infection score, replicate 1 = 13. Silencing of MsrA [DRSC11159] came out at: infection score, replicate 1 = 3.66.

CG14883 [DRSC15007] gave infection score, replicate 1 = 2.16. Against l(2)efl [DRSC04698], the entry reads infection score, replicate 1 = 3.04. Against CG4364 [DRSC02742] the deposit lists infection score, replicate 1 = 6.4. For CG4364 [DRSC29531], the entry reads infection score, replicate 1 = 20.1. With knock-down of CG14434 [DRSC17927], the record shows infection score, replicate 1 = 6.64. With knock-down of CDK2AP1 [DRSC19800], the record shows infection score, replicate 1 = 2.02.

Depletion of CDK2AP1 [DRSC25637] came out at: infection score, replicate 1 = 1.35.
